Assay results from patent publication US10919935B2, “Antimicrobial peptide derived from myxinidin peptide and uses thereof” (INDUSTRY-ACADEMIC COOPERATION FOUNDATION, CHOSUN UNIVERSITY, priority 2015, dated 2021).
Residues, ends and D or L forms follow the SMILES beside them.

Test: Circular dichroism spectrum in membrane-mimicking solutions
Settings: peptide 50 μM in PG or PE:PG

SMILES | Secondary structure by circular dichroism
CC[C@H](C)[C@H](NC(=O)[C@H](Cc1c[nH]c2ccccc12)NC(=O)[C@H](CCCNC(=N)N)NC(=O)[C@@H](NC(=O)[C@@H](N)CCCNC(=N)N)[C@@H](C)CC)C(=O)N[C@@H](CC(C)C)C(=O)N[C@@H](CCCNC(=N)N)C(=O)N[C@@H](Cc1ccc(O)cc1)C(=O)N[C@@H](Cc1c[nH]c2ccccc12)C(=O)N[C@@H](CCCNC(=N)N)C(=O)N[C@@H](Cc1c[nH]c2ccccc12)C(=O)N[C@@H](CO)C(N)=O [Myxinidin 3, RIRWILRYWRWS-NH2] (H-RIRWILRYWRWS-NH2; N-terminus assumed) | an α-helical structure or a β-sheet structure as a secondary structure is formed
CC[C@H](C)[C@H](NC(=O)[C@H](Cc1c[nH]c2ccccc12)NC(=O)[C@H](CCCCN)NC(=O)[C@@H](NC(=O)[C@@H](N)CCCCN)[C@@H](C)CC)C(=O)N[C@@H](CC(C)C)C(=O)N[C@@H](CCCCN)C(=O)N[C@@H](Cc1ccc(O)cc1)C(=O)N[C@@H](Cc1c[nH]c2ccccc12)C(=O)N[C@@H](CCCCN)C(=O)N[C@@H](Cc1c[nH]c2ccccc12)C(=O)N[C@@H](CO)C(N)=O [Myxinidin 2, KIKWILKYWKWS-NH2] (H-KIKWILKYWKWS-NH2; N-terminus assumed) | an α-helical structure or a β-sheet structure as a secondary structure is formed
